Results deposited as PubChem BioAssay AID504761 (Drosophila RNAi Screening Center, 2011).

- Aim: 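Genome-wide fly cell screen for genes dengue virus requires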 (primary screen)
- System: D.Mel-2 cells from Drosophila
- Knock-down reagent: long dsRNA against Drosophila genes
- Challenge: infection with dengue virus type 2; dose and infection time not stated
- Measurement: 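Per well on two replicate plates, imaging gave the percent of cells positive for viral envelope protein, ranked by infection, and a nuclear count of cells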
- Reading the numbers: infection score: higher = more virus-infected cells; cell count: higher = more cells in the well
- Hit rule: 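Low infection ranks in the two replicates (chance level up to 0.065) followed by a retest with a 1.5-fold or larger significant decrease, p below 0.05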
- Calls: active = confirmed: knock-down lowers infection; inactive = not picked or not confirmed
The deposit covers about 22,000 reagents; this is an unselected part of those that have a named target and a result. In the full data, 116 (0.52%) were called active. 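Calls depend on retest data that are not deposited; infection was ranked per plate without normalising between plates; the unit of the infection score is not given.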 Raw values are not corrected between plates. No sequences are given here. The record does not give: the amount of reagent, the time to read-out.

| Target gene | dsRNA | infection score, replicate 1 | infection score, replicate 2 | cell count, replicate 1 | cell count, replicate 2 | Outcome |
| --- | --- | --- | --- | --- | --- | --- |
| CG4596 | DRSC15608 | 2.15 | 11.1 | 6235 | 6284 | inactive |
| CG4596 | DRSC25914 | 4.57 | 3.87 | 6066 | 6048 | inactive |
| pdgy | DRSC19064 | 3.48 | 6.76 | 6381 | 6498 | inactive |
| pdgy | DRSC19341 | 11.7 | 0.45 | 6348 | 6874 | inactive |
| Sulf1 | DRSC16874 | 2.16 | 5.7 | 6247 | 5891 | inactive |
| Sulf1 | DRSC27279 | 4.35 | 11.8 | 6870 | 6512 | inactive |
| CG6051 | DRSC15956 | 2.59 | 11.5 | 6990 | 6801 | inactive |
| CG6051 | DRSC25123 | 3.32 | 3.35 | 6529 | 6300 | inactive |
| Cyp6a2 | DRSC05014 | 17.7 | 18.9 | 6203 | 4849 | inactive |
| Cyp6a2 | DRSC24091 | 2.98 | 1.35 | 6307 | 5866 | inactive |
| CG3808 | DRSC10377 | 6.99 | 5.99 | 6635 | 6624 | inactive |
| CG9166 | DRSC07842 | 3.81 | 2.1 | 5929 | 5774 | inactive |
| ICA69 | DRSC11621 | 2.02 | 4.58 | 6446 | 5853 | inactive |
| CG14868 | DRSC14991 | 1.6 | 2.86 | 6760 | 6012 | inactive |
| CG14868 | DRSC27707 | 9.27 | 9.7 | 6709 | 6802 | inactive |
| CARPA | DRSC17905 | – | 25.7 | 360 | 5164 | inactive |
| CARPA | DRSC21633 | 3.12 | 3.32 | 5968 | 6806 | inactive |
| CG33253 | DRSC19547 | 10.7 | 3.58 | 5860 | 5787 | inactive |
| CG33253 | DRSC20053 | 2.93 | 11 | 5802 | 6361 | inactive |
| mdy | DRSC01559 | 4.2 | 0.8 | 5926 | 5839 | inactive |
| mdy | DRSC02250 | 12.6 | 9.43 | 6607 | 6246 | inactive |
| Eps-15 | DRSC04288 | 2.1 | 10.3 | 6346 | 5376 | inactive |
| CG9257 | DRSC03173 | 8.03 | 5.26 | 5357 | 6481 | inactive |
| CG3511 | DRSC04382 | 21.4 | 32.9 | 6084 | 4857 | inactive |
| CG3511 | DRSC28281 | 5.51 | 21.6 | 5464 | 3985 | inactive |
| CG42360 | DRSC04224 | 5.63 | 15.4 | 6785 | 6044 | inactive |
| tyn | DRSC20652 | 2.67 | 1.7 | 5251 | 5831 | inactive |

Already shown: entries from further up.
| Target gene | dsRNA | infection score, replicate 1 | infection score, replicate 2 | cell count, replicate 1 | cell count, replicate 2 | Outcome |
| --- | --- | --- | --- | --- | --- | --- |
| pdgy | DRSC19341 | 11.7 | 0.45 | 6348 | 6874 | inactive |
| Sulf1 | DRSC16874 | 2.16 | 5.7 | 6247 | 5891 | inactive |
| Sulf1 | DRSC27279 | 4.35 | 11.8 | 6870 | 6512 | inactive |
| CG6051 | DRSC15956 | 2.59 | 11.5 | 6990 | 6801 | inactive |
| CG6051 | DRSC25123 | 3.32 | 3.35 | 6529 | 6300 | inactive |
| Cyp6a2 | DRSC05014 | 17.7 | 18.9 | 6203 | 4849 | inactive |
| Cyp6a2 | DRSC24091 | 2.98 | 1.35 | 6307 | 5866 | inactive |

The listing continues:
| Target gene | dsRNA | infection score, replicate 1 | infection score, replicate 2 | cell count, replicate 1 | cell count, replicate 2 | Outcome |
| --- | --- | --- | --- | --- | --- | --- |
| CG8230 | DRSC05931 | 14.3 | 6.25 | 4659 | 1280 | inactive |
| OdsH | DRSC20263 | 1.97 | 5.09 | 6412 | 6581 | inactive |
| CG15615 | DRSC06568 | 10.2 | 9.5 | 6670 | 6704 | inactive |
| CG15615 | DRSC29555 | 16.8 | 11.4 | 4436 | 5424 | inactive |
| E(spl)m5-HLH | DRSC16695 | 22.6 | 2.15 | 3966 | 7334 | inactive |
| E(spl)m5-HLH | DRSC28232 | 13.7 | 20.8 | 4977 | 4928 | inactive |
| sens | DRSC09263 | 4.03 | 3.46 | 4024 | 4047 | inactive |
| sens | DRSC23086 | 2.15 | 6.11 | 5666 | 6565 | inactive |
| bsd | DRSC05953 | 12.9 | 9.42 | 3945 | 5295 | inactive |
| Ldsdh1 | DRSC18219 | 2.24 | 3.44 | 6459 | 6288 | inactive |
| Ldsdh1 | DRSC26664 | 3.38 | 5.73 | 5951 | 6091 | inactive |
| gammaSnap1 | DRSC04686 | 15.3 | 28.8 | 6204 | 5883 | inactive |
| gammaSnap1 | DRSC28381 | 12.9 | 16.9 | 5470 | 4446 | inactive |
| Ir8a | DRSC17817 | 11 | 13.6 | 5280 | 5566 | inactive |
| Ir8a | DRSC17869 | 4.52 | 36.9 | 642 | 4738 | inactive |
| CAH7 | DRSC15524 | 16.4 | 2.5 | 6122 | 6847 | inactive |
| SPoCk | DRSC11675 | 6.05 | 3.91 | 6696 | 6680 | inactive |
| SPoCk | DRSC11706 | 7.73 | 5.04 | 6057 | 6564 | inactive |
| SPoCk | DRSC11844 | 3.25 | 5.56 | 7052 | 6696 | inactive |
| SPoCk | DRSC11845 | 2.27 | 4.46 | 6959 | 7069 | inactive |
| SPoCk | DRSC24007 | 3.93 | 6.11 | 6610 | 6481 | inactive |
| H2.0 | DRSC03340 | 7.29 | 4.32 | 6242 | 6067 | inactive |
| H2.0 | DRSC22555 | 7.23 | 2.02 | 6392 | 6233 | inactive |
| AttA | DRSC05926 | 12 | 8.94 | 6282 | 6753 | inactive |
| AttA | DRSC27311 | 17.3 | 2.94 | 6459 | 6234 | inactive |
| twit | DRSC03210 | 17.3 | 59.8 | 6161 | 4369 | inactive |
| twit | DRSC30028 | 1.36 | 2.49 | 6633 | 6176 | inactive |
| betaNACtes6 | DRSC22925 | 1.22 | 2.19 | 6144 | 7160 | inactive |
| betaNACtes6 | DRSC26649 | 6.37 | 1.18 | 5577 | 5781 | inactive |
| CG13022 | DRSC09902 | 2.59 | 2.59 | 6476 | 6407 | inactive |
| CG18539 | DRSC06766 | 23.9 | 11.9 | 5060 | 6276 | inactive |
